Measured values from several laboratories, pooled; numbers as filed in NIAID ChemDB.

Shared fields: growth or infection tests; organism: HIV-1; endpoint: fold resistance

Fold resistance: result on the changed form divided by that on wild type.

Cc1cc(S(N)(=O)=O)ccc1NC(=O)COc1ccc(Cl)cc1C(=O)c1cc(Cl)cc(C#N)c1 ; strain: NNRTI-resistant (RT V106A Y181C) ; cell line: MAGI ; method: β-galactosidase ; changes: RT-V106A Y181C ; result: 1.7
CCOCn1c(Cc2ccccc2)c(C(C)C)c(=O)[nH]c1=O ; strain: P-1 (RT-K103N Y144F) ; cell line: CEM ; method: cytopathic effect ; changes: RT-K103N Y144F ; result: 233
O=c1[nH]cnc2c1ncn2[C@H]1CC[C@@H](CO)O1 ; strain: HXB2 ; cell line: HT4 + HT4 LacZ-1 ; method: plaque count ; changes: RT-Y181C ; result: 0.929
CC[C@H]1C(=O)Nc2ccc(F)cc2N1C(=O)OC(C)C ; strain: B-1 (RT L100V K103R/K Y188H) ; cell line: CEM ; method: cytopathic effect ; changes: RT-L100V K103R/K Y188H ; result: 8
O=S(=O)(c1ccccc1)c1ccccc1 ; strain: UC781-R (RT-Y181C) ; cell line: CEM + CEM-SS ; method: cytopathic effect / XTT ; changes: RT-Y181C ; result: >16.3
Cc1ccnc2c1NC(=O)c1cccnc1N2C1CC1 ; strain: Costatolide-resistant (RT L100I T139I) ; cell line: CEM + CEM-SS ; method: XTT ; changes: RT-L100I T139I ; result: 20
Fc1cccc(F)c1C1SCc2nc3ccccc3n21 ; strain: UC10-resistant (RT Y181C K101E) ; cell line: CEM + CEM-SS ; method: cytopathic effect / XTT ; changes: RT-Y181C K101E ; result: >20.3
Cc1cn([C@H]2C=C[C@@H](CO)O2)c(=O)[nH]c1=O ; strain: Recombinant ; cell line: HeLa ; method: luciferase ; changes: RT-V118I M184V ; result: 1.3
Cc1occc1C(=S)Nc1ccc(Cl)c(/C=N/OC(C)(C)C)c1 ; strain: NL4-3 (RT K103N) ; cell line: CEM + CEM-SS ; method: cytopathic effect / XTT ; changes: RT-K103N ; result: 60
N#Cc1cc2[nH]c3ccccc3c2n(-c2ccc([N+](=O)[O-])cc2)c1=O ; strain: NNRTI-resistant ; cell line: HeLa ; method: luciferase ; changes: RT-K103N Y181C ; result: 2.2
CC(C)CN(C[C@@H](O)[C@H](Cc1ccccc1)NC(=O)O[C@H]1CCOC1)S(=O)(=O)c1ccc(N)cc1 ; strain: IIIB ; cell line: MT-2 ; method: p24 / ELISA ; changes: I401T R409K D437N ; result: 1.2
CC(C)(C)NC(=O)[C@@H]1C[C@@H]2CCCC[C@@H]2CN1C[C@@H](O)[C@H](Cc1ccccc1)NC(=O)[C@H](CC(N)=O)NC(=O)c1ccc2ccccc2n1 ; strain: NL4-3 ; cell line: MT-4 ; method: p24 ; changes: PR-M46I ; result: 1
Cn1c2ccccc2c2c1cc(C#N)c(=O)n2-c1ccc([N+](=O)[O-])cc1 ; strain: NRTI resistant ; cell line: HeLa ; method: luciferase ; changes: RT-M41L E44D D67N T69D V118I M184V L210W T215Y ; result: 11.2
O=c1[nH]cnc2c1ncn2[C@H]1CC[C@@H](CO)O1 ; strain: RT-69N 70R 151M 215F ; changes: RT-T69N K70R Q151M T215F ; result: 3
Fc1cccc(F)c1C1SCc2nc3ccccc3n21 ; strain: Calanolide A-resistant (RT T139I) ; cell line: CEM + CEM-SS ; method: XTT ; changes: RT-T139I ; result: 1.56
CC(C)CN(C[C@@H](O)[C@H](Cc1ccccc1)NC(=O)[C@H](CC(N)=O)NC(=O)c1ccc2ccccc2n1)C(=O)NC(C)(C)C ; strain: NL4-3 ; cell line: MT-4 ; method: p24 ; changes: PR-L63P V82T I84V ; result: 7.5
Cc1ccnc2c1NC(=O)c1cccnc1N2C1CC1 ; strain: Y-1 (RT-K103N) ; cell line: CEM ; method: cytopathic effect ; changes: RT-K103N ; result: 367
Cc1ccc(S(=O)(=O)N(CC(C)C)C[C@@H](O)[C@H](Cc2ccccc2)NC(=O)O[C@H]2CO[C@H]3OCC[C@H]32)cc1 ; strain: IIIB ; cell line: MT-2 ; method: p24 / ELISA ; changes: D437N L441P ; result: 1.5
Nc1nc2c(ncn2[C@H]2CO[C@@H](CO)O2)c(=O)[nH]1 ; strain: RT-103N 108I ; changes: RT-K103N V108I ; result: 0.1
C/C=C/CSc1cc(NC(=S)c2ccsc2C)ccc1Cl ; strain: Calanolide A-resistant (RT T139I) ; cell line: CEM + CEM-SS ; method: XTT ; changes: RT-T139I ; result: 8
Cc1ccnc2c1NC(=O)c1cccnc1N2C1CC1 ; strain: NL4-3 (RT L74V) ; cell line: CEM + CEM-SS ; method: cytopathic effect / XTT ; changes: RT-L74V ; result: 1
Cc1cn([C@H]2C[C@H](N=[N+]=[N-])[C@@H](CO)O2)c(=O)[nH]c1=O ; strain: NL4-3(RT-4XAZT+L100I) ; cell line: CEM + CEM-SS ; method: XTT ; changes: RT-D67N K70R L100I T215Y K219Q ; result: 20
CCN(c1nc(F)ccc1NC(C)(C)C)C1CCN(C(=O)c2cc3cc(NC(=O)N4CCN(C)CC4)ccc3[nH]2)CC1 ; strain: IIIB ; cell line: MT-2 ; method: p24 / ELISA ; changes: M200I ; result: 0.9

A second listing of 2 rows from above:

SMILES	strain	cell line	method	changes	result
Cc1ccc(S(=O)(=O)N(CC(C)C)C[C@@H](O)[C@H](Cc2ccccc2)NC(=O)O[C@H]2CO[C@H]3OCC[C@H]32)cc1	IIIB	MT-2	p24 / ELISA	D437N L441P	1.5
CC[C@H]1C(=O)Nc2ccc(F)cc2N1C(=O)OC(C)C	B-1 (RT L100V K103R/K Y188H)	CEM	cytopathic effect	RT-L100V K103R/K Y188H	8

Conditions beyond the fields shown may differ between rows.